According to PubChem BioAssay AID504621 (Broad Institute, 2011):
The entries are a selection whose mix differs from that of the whole data set. The source made the active and inactive calls.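 How the source made its calls: active means every replicate shows inhibition above about 80%, whatever the replicate mean (limit read from the data); inconclusive means mean inhibition reaches the set limit but some replicate falls short; inactive means the rest.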

experiment: growth inhibition of PfHsp90-expressing yeast, primary screen, antimalarial PfHsp90 inhibitor project, S. cerevisiae, BacTiter-Glo luminescence, single point, set 2 (AID 504621); conditions: BacTiter-Glo ATP, 48 h, at 9.4 µM, stronger effect = higher value, yeast lacking PDR1 and PDR3 efflux regulators;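 further: yeast relying on Plasmodium falciparum Hsp90 in place of its own; 0% = DMSO neutral controls and 100% = 20 µM radicicol positive controls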

Structure (SMILES) | inhibition
Cc1cc(C)cc(OP(C)(=O)Nc2ccc(SC(F)(F)F)cc2)c1 (stereo unspecified) | inactive: -23.1%
